Source: patent US20120184020A1, “ENGINEERED MICROORGANISMS WITH ENHANCED FERMENTATION ACTIVITY” (Verdezyne, Inc., priority 2009, published 2012)

Experiment: Anti-His western blot of xylose isomerase constructs expressed in S. cerevisiae
Design: species or system Saccharomyces cerevisiae
Details: His-tagged constructs in p426GPD, S. cerevisiae BY4742

Piromyces xylose isomerase: xylose isomerase from Piromyces strain E2, SEQ ID NO. 35 [reference compound]
expression of xylose isomerase in yeast cells (western): expressed in both the soluble and insoluble fractions | expression of xylose isomerase in yeast cells (western) (listed as wild type Piromyces xylose isomerase): expressed in the soluble fraction
